Experimental data: patent US9211260B2, “Methods of reducing the effects of exposure to a mustard compound by administering RLIP76” (dated 2015)

Test system: C57bl/6 mice exposed to melphalan
Test: Survival of mice after melphalan 25.2 mg/kg (Study Design B)
Settings: melphalan IP, untreated group

Molecule N[C@@H](Cc1ccc(N(CCCl)CCCl)cc1)C(=O)O has an LD100/15 of 25.2 mg/kg.
